Assay results taken from article PMC9518868 (PLoS ONE, 2022).

Sequences of proteins named here, by UniProt entry; tags and fusion partners are left off.
UniProt P23975, whole entry: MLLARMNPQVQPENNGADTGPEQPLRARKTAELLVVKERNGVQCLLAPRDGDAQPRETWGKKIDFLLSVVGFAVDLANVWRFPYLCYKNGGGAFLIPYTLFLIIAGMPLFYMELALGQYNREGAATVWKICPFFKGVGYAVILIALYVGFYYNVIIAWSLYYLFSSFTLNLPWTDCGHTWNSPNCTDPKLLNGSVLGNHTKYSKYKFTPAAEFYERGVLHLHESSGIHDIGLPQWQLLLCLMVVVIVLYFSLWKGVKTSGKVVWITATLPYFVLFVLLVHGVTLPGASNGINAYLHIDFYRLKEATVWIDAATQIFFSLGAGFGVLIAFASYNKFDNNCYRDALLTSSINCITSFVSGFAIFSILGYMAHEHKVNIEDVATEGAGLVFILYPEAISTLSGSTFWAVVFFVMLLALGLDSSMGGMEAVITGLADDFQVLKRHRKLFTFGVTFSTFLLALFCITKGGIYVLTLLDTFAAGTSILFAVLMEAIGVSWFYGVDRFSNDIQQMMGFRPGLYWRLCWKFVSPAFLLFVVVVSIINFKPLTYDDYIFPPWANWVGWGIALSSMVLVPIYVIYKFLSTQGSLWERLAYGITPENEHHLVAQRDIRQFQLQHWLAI
UniProt P23975, whole entry Y467H: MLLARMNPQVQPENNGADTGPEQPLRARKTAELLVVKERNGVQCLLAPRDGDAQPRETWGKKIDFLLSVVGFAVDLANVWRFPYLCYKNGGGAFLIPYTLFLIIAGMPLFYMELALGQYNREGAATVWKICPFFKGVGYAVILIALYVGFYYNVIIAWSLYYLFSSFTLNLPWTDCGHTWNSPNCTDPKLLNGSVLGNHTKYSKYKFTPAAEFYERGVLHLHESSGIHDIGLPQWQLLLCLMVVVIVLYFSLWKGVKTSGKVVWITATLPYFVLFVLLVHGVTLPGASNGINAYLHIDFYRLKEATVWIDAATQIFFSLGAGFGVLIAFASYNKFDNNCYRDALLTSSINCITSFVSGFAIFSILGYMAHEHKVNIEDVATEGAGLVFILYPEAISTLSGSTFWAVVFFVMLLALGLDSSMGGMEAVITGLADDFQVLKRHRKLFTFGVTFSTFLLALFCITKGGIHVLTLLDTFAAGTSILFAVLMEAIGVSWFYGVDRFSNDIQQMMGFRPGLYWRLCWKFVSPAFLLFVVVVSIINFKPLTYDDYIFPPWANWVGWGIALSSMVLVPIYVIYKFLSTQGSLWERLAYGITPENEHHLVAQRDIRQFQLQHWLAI
UniProt P23975, whole entry Y467F: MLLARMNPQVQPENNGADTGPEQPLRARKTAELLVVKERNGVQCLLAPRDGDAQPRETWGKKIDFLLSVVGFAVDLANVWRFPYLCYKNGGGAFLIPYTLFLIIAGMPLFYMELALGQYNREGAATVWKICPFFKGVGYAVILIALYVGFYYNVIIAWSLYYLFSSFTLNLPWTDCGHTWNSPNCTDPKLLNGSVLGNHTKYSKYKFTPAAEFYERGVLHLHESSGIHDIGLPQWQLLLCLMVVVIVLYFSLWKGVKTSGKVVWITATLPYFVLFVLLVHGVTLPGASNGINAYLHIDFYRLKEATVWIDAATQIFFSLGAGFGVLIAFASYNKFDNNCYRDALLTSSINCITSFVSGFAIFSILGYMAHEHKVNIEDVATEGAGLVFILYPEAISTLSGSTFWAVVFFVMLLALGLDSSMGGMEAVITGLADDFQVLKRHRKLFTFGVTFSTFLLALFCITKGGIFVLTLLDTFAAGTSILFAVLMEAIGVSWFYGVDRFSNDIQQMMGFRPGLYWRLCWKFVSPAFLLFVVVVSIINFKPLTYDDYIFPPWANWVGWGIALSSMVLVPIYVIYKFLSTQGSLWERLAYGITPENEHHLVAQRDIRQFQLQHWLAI

Experiments:
WT hNET = molecular target: T1, WT hNET (Homo sapiens, UniProt P23975); experiment: [^3H]WIN 35,428 binding assay, PC12 cells expressing WT hNET
T1 construct: expressed in transfected cells; host or cells: PC12 cells, transient transfection of pcDNA3.1+ plasmid with Lipofectamine 2000
Experimental: (§1) [^3H]WIN 35,428 and [[…] represent binding sites on hNET with different kinetic profiles. To determine whether mutation of Tyr467 alters hNET binding sites, we determined the kinetic parameters (Bmax and Kd) of [^3H]WIN 35,428 or [[…] in PC12 cells transfected with WT hNET or mutants. Cell suspensions were prepared as described above. Following cell suspension preparation, the final cell pellets were resuspended in 1 mL of assay buffer (15 mM Na2HPO4, 30 mM NaH2PO4, 122 mM NaCl, 5 mM KCl, 1 mM MgSO4, 10 mM glucose, 1 mM CaCl, and 10 nM EDTA). […] The reaction was terminated by immediate filtration through Whatman GF/B glass filters (presoaked for 2 h with 1 mM pyrocatechol) followed by three washes with ice-cold assay buffer using a Brandel cell harvester (model M-48; Brandel Inc., Gaithersburg, MD) and radioactivity was determined as described above. […]
(§2) Results are presented as mean ± SEM, and n represents the number of independent experiments for each experiment group. Kinetic parameters (Vmax, Km, Bmax, and Kd) were determined from saturation curves by nonlinear regression analysis using a one-site model with variable slope. IC50 values for substrate and inhibitors for [^3H]DA or [^3H]NE uptake were determined from inhibition curves by nonlinear regression analysis using a one-site model with variable slope. […]

hNET Y467H = molecular target: T2, hNET Y467H (Homo sapiens, UniProt P23975, Y467H); experiment: [^3H]WIN 35,428 binding assay, PC12 cells expressing Y467H hNET
T2 construct: expressed in transfected cells; host or cells: PC12 cells, transient transfection of pcDNA3.1+ plasmid with Lipofectamine 2000
Experimental: as §1, §2

hNET Y467F = molecular target: T3, hNET Y467F (Homo sapiens, UniProt P23975, Y467F); experiment: [^3H]WIN 35,428 binding assay, PC12 cells expressing Y467F hNET
T3 construct: expressed in transfected cells; host or cells: PC12 cells, transient transfection of pcDNA3.1+ plasmid with Lipofectamine 2000
Experimental: as §1, §2

With “2beta-carbomethoxy-3-beta-(4-fluorophenyl)tropane [[^3H]WIN 35,428]” the “Bmax of [^3H]WIN 35,428 binding” value (WT hNET) was 0.267 ± 0.063 pmol/10^6, the Kd (WT hNET) was 24.7 ± 3.1 nM and the “Bmax of [^3H]WIN 35,428 binding” value (hNET Y467H) was 0.209 ± 0.034 pmol/10^6. For the same substance, the Kd (hNET Y467H) was 31 ± 3.1 nM and the “Bmax of [^3H]WIN 35,428 binding” value (hNET Y467F) was 0.322 ± 0.078 pmol/10^6.
